Patent US9266844B2 (priority 2012, dated 2016)

System: SARS-CoV replicon
Details: CC50 XTT / EC50 replicon

For `C=CCn1c(S)nnc1CSc1ccccc1[N+](=O)[O-]` [SSYA10-001, 3-[(2-nitrophenyl)sulfanylmethyl]-4-prop-2-enyl-1H-1,2,4-triazole-5-thione], the selectivity index (CC50/EC50) was 30.
